Positions count from the first letter of the chain named. In names and notes the source's numbering stands.
B1: Glu/Asp BP F131C JPW4039 (conjugate, UniProt P37902 23-302, looked up, variant F131C)
Glutamate/aspartate import …: DDAAPAAGSTLDKIAKNGVIVVGHRESSVPFSYYDNQQKVVGYSQDYSNAIVEAVKKKLNKPDLQVKLIPITSQNRIPLLQNGTFDFECGSTTNNVERQKQAAFSDTICVVGTRLLTKKGGDIKDFANLKDKAVVVTSGTTSEVLLNKLNEEQKMNMRIISAKDHGDSFRTLESGRAVAFMMDDALLAGERAKAKKPDNWEIVGKPQSQEAYGCMLRKDDPQFKKLMDDTIAQVQTSGEAEKWFDKWFKNPIPPKNLNMNFELSDEMKALFKEPNDKALN
modifications: JPW4039 label
B2: Glu/Asp BP F131C JPW4042 (conjugate, UniProt P37902 23-302, looked up, variant F131C)
Glutamate/aspartate import …: B1 Glutamate/aspartate import …
modifications: JPW4042 dye conjugate
B3: Glu/Asp BP F131C JPW4045 (conjugate, UniProt P37902 23-302, looked up, variant F131C)
Glutamate/aspartate import …: B1 Glutamate/aspartate import …
modifications: JPW4045 dye label
B4: Glu/Asp BP F131C Acrylodan (conjugate, UniProt P37902 23-302, looked up, variant F131C)
Glutamate/aspartate import …: B1 Glutamate/aspartate import …
modifications: Acrylodan label
B5: Glu/Asp BP F131C Fluorescein (conjugate, UniProt P37902 23-302, looked up, variant F131C)
Glutamate/aspartate import …: B1 Glutamate/aspartate import …
modifications: fluorescein conjugate
B6: Glu/Asp BP F131C NBD (conjugate, UniProt P37902 23-302, looked up, variant F131C)
Glutamate/aspartate import …: B1 Glutamate/aspartate import …
modifications: NBD conjugate
B7: arabinose BP D257C NBD (conjugate, UniProt P02924 24-329, looked up, variant D257C)
L-arabinose-binding …: ENLKLGFLVKQPEEPWFQTEWKFADKAGKDLGFEVIKIAVPDGEKTLNAIDSLAASGAKGFVICTPDPKLGSAIVAKARGYDMKVIAVDDQFVNAKGKPMDTVPLVMMAATKIGERQGQELYKEMQKRGWDVKESAVMAITANELDTARRRTTGSMDALKAAGFPEKQIYQVPTKSNDIPGAFDAANSMLVQHPEVKHWLIVGMNDSTVLGGVRATEGQGFKAADIIGIGINGVDAVSELSKAQATGFYGSLLPSPCVHGYKSSEMLYNWVAKDVEPPKFTEVTDVVLITRDNFKEELEKKGLGGK
modifications: NBD label
B8: Glu/Asp BP F270C JPW4039 (conjugate, UniProt P37902 23-302, looked up, variant F270C)
Glutamate/aspartate import …: B1 Glutamate/aspartate import … with C109F, F248C
modifications: JPW4039 label
B9: Glu/Asp BP F270C JPW4042 (conjugate, UniProt P37902 23-302, looked up, variant F270C)
Glutamate/aspartate import …: B1 Glutamate/aspartate import … with C109F, F248C
modifications: JPW4042 dye label
B10: Glu/Asp BP F270C JPW4045 (conjugate, UniProt P37902 23-302, looked up, variant F270C)
Glutamate/aspartate import …: B1 Glutamate/aspartate import … with C109F, F248C
modifications: JPW4045 dye conjugate
B11: Glu/Asp BP F270C Acrylodan (conjugate, UniProt P37902 23-302, looked up, variant F270C)
Glutamate/aspartate import …: B1 Glutamate/aspartate import … with C109F, F248C
modifications: acrylodan conjugate
B12: Glu/Asp BP F270C Fluorescein (conjugate, UniProt P37902 23-302, looked up, variant F270C)
Glutamate/aspartate import …: B1 Glutamate/aspartate import … with C109F, F248C
modifications: fluorescein conjugate
B13: Glu/Asp BP F270C NBD (conjugate, UniProt P37902 23-302, looked up, variant F270C)
Glutamate/aspartate import …: B1 Glutamate/aspartate import … with C109F, F248C
modifications: NBD conjugate
B14: Glu/Asp BP G211C JPW4039 (conjugate, UniProt P37902 23-302, looked up, variant G211C)
Glutamate/aspartate import …: B1 Glutamate/aspartate import … with C109F, G189C
modifications: JPW4039 dye conjugate
B15: Glu/Asp BP G211C JPW4042 (conjugate, UniProt P37902 23-302, looked up, variant G211C)
Glutamate/aspartate import …: B1 Glutamate/aspartate import … with C109F, G189C
modifications: JPW4042 dye label
B16: Glu/Asp BP G211C JPW4045 (conjugate, UniProt P37902 23-302, looked up, variant G211C)
Glutamate/aspartate import …: B1 Glutamate/aspartate import … with C109F, G189C
modifications: JPW4045 label
B17: Glu/Asp BP G211C Acrylodan (conjugate, UniProt P37902 23-302, looked up, variant G211C)
Glutamate/aspartate import …: B1 Glutamate/aspartate import … with C109F, G189C
modifications: acrylodan conjugate
B18: arabinose BP F23C JPW4039 (conjugate, UniProt P02924 24-329, looked up, variant F23C)
L-arabinose-binding …: B7 L-arabinose-binding … with F23C, C257D
modifications: JPW4039 label

Assay: Fluorescence emission spectra without and with saturating ligand (wavelength shift, ΔIstd, ΔRmax)
Conditions: for λmax,apo (nm) / λmax,sat (nm): emission maximum; for λmax,apo (nm): absence of ligand; for λmax,sat (nm): saturating ligand (ligand column); for ΔIstd: standard intensity change; for ΔIstd / ΔRmax: unbound vs ligand-saturated; for ΔRmax: standard ratiometric change
Outline: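 Emission spectra of bPBP–fluorophore conjugates (50–1000 nM protein, 25 °C, stirred) recorded without and with saturating ligand, using fluorophore-specific excitation. Wavelength shift, ΔIstd (intensity change at the mid-point wavelength) and ΔRmax (maximal ratiometric change over enumerated band pairs, 2 nm steps, 10 nm width) derived.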

Molecule | λmax,apo (nm) | λmax,sat (nm) | ΔIstd | ΔRmax
B1 | 593 | 597 | 0.15 | 0.37
B2 | 650 | 643 | 0.06 | 0.68
B3 | 649 | 642 | 0.02 | 0.48
B4 | 487 | 492 | 0.08 | 0.84
B5 | 522 | 522 | 0.05 | 0.13
B6 | 539 | 541 | 0.01 | 0.10
B7 | 538 | 544 | 0.22 | 1.15
B8 | 596 | 594 | 0.01 | 0.11
B9 | 640 | 645 | 0.08 | 0.14
B10 | 644 | 647 | 0.07 | 0.69
B11 | 490 | 492 | 0.07 | 0.60
B12 | 523 | 523 | 0.04 | 0.21
B13 | 572 | 571 | 0.06 | 0.31
B14 | 594 | 592 | 0.01 | 0.12
B15 | 628 | 631 | 0.09 | 0.12
B16 | 631 | 634 | 0.06 | 0.36
B17 | 493 | 492 | 0.02 | 0.29
B18 | 587 | 588 | 0.93 | 0.76

Reference: US9625458B2, “Biosensor” (priority 2002, dated 2017)
